From PMC7793522, “TCR Recognition of Peptide–MHC-I: Rule Makers and Breakers” (2020)

Molecular target: T1, human cytomegalovirus (CMV), NLV peptide peptide on HLA-A*02:01 (human)
T1 chain: NLVPMVATV
Assay: data from [33]; method not given; soluble, other
Settings: chains alpha TRAV26-2*01 CDR3:beta TRBV7-6*01 CDR3

B1: C25 (peptide)
chain 1: ILDNNNDMR
chain 2: ASSLAPGTTNEKLF
Question: Which Kd does the source give for B1 here?
Answer: 4.7 µM
